RC index of single-base changes in HIV-1 Nef

Source: Al-Mawsawi et al. 2014 (doi:10.1186/s12977-014-0124-6), supplementary data.

Protein: Nef of HIV-1 NL4-3, numbered from its first residue.
From base 9076 on, changes also alter the 3' U3.
Effects on overlapping genes or RNA elements are not listed.

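Seven fragments of pNL4-3 were mutated by error-prone PCR, and each virus pool was passaged in CEM T cells. The RC index is the frequency of a change after passage round 2 divided by its frequency in the plasmid library.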

Values are the RC index; higher means better tolerated. The authors read about 0.1 or less as lethal, 0.1-0.2 as attenuated and 0.2 or more as tolerated.
Substitutions are written as wild-type residue, site number, new residue.

substitution,base,RC
K4Q,A8796C,0.138
W5L,G8800T,0.207
S9N,G8812A,0.282
V10A,T8815C,4.38
I11M,T8819G,0.0729
P14A,C8826G,0.0978
V16L,G8832C,0
V16A,T8833C,0.196
R17M,G8836T,0.309
E18D,A8840T,0.0263
M20L,A8844T,0.102
M20T,T8845C,0.122
R21S,A8849T,0.911
R22G,C8850G,0.612
D28G,A8869G,0.777
D28V,A8869T,0.0170
K39N,A8903T,0.946
H40L,A8905T,0.433
S45R,A8919C,0.489
S46T,G8923C,0.682
N47K,T8927A,0.932
T48R,C8929G,0.432
A50P,G8934C,0.744
A53D,C8944A,0.521
A54S,G8946T,0.551
L58P,T8959C,0.806
E59A,A8962C,0.267
E62G,A8971G,0.577
E62V,A8971T,0.929
E64K,G8976A,2.82
V66L,G8982T,0.215
V66G,T8983G,0.737
V70F,G8994T,0.870
T71I,C8998T,0.891
P72H,C9001A,0.745
V74L,G9006T,0.289
V74E,T9007A,0.315
P75H,C9010A,0.372
Y81F,A9028T,0.767
K82N,G9032C,0.577
A83S,G9033T,0.551
V85I,G9039A,1.36
V85A,T9040C,0.790
L87V,C9045G,0.342
S88N,G9049A,0.801
H89Q,C9053G,0.115
K92I,A9061T,0.200
E93V,A9064T,0.463
K94R,A9067G,1.13
K94N,G9068T,0.621
H102Q,C9092A,0.378
S103Y,C9094A,0.361
Q104H,A9098C,0.488
Q104H,A9098T,0.673
Q107K,C9105A,0.632
Q107L,A9106T,0.967
I109S,T9112G,0.661
D111G,A9118G,0.897
L112R,T9121G,1.96
I114L,A9126C,0.541
H116D,C9132G,0.498
H116L,A9133T,0.559
G119D,G9142A,0.719
Y120N,T9144A,0.743
Y120F,A9145T,0.553
W124C,G9158T,0.252
Q125K,C9159A,0.659
Q125H,G9161T,1.05
N126K,C9164A,0.880
T128P,A9168C,0.248
P131Q,C9178A,0.660
G132V,G9181T,0.983
L137P,T9196C,0.603
F139I,T9201A,0.490
F139C,T9202G,0.617
F139L,T9203A,0.699
F139L,T9203G,0.840
G140R,G9204A,0.471
W141L,G9208T,0.476
C142Y,G9211A,0.417
C142S,G9211C,0.509
K144N,G9218C,0.526
P147L,C9226T,0.831
V148L,G9228C,0.199
E149G,A9232G,0.958
E155D,G9251T,0.768
N157I,A9256T,1.10
K158R,A9259G,0.973
E160Q,G9264C,0.335
E160G,A9265G,1.49
N161T,A9268C,1.47
L164M,T9276A,0.767
L165I,T9279A,0.809
H166L,A9283T,0.965
P167A,C9285G,0.735
S169R,C9293G,0.470
M173T,T9304C,0.585
D174N,G9306A,0.705
P176H,C9313A,0.743
R178S,A9320T,0.816
V180M,G9324A,1.12
V180E,T9325A,1.12
L181V,T9327G,1.95
R184G,A9336G,0.642
F185L,T9341A,0.418
D186N,G9342A,1.09
S187T,G9346C,0.437
R188P,G9349C,0.987
F191L,T9357C,0.838
H192Y,C9360T,0.794
H193Y,C9363T,0.946
L198M,C9378A,0.818
H199R,A9382G,0.461
E201Q,G9387C,0.686
Y202C,A9391G,0.941
N205D,A9399G,0.844
N205K,C9401A,0.828

Extract of 5 entries:

- Q107L (base A9106T): 0.967
- K94N (base G9068T): 0.621
- R21S (base A8849T): 0.911
- S88N (base G9049A): 0.801
- R178S (base A9320T): 0.816

Since each clone held several changes (about five per kb), neutral changes can read low.
Nucleotide positions follow pNL4-3.
An index over 1, which the authors read as above wild type, was rare (1.9% of all changes in the genome).